Columns and labels:
[1] = biological target: α-hemolysin (M113R)7/am7-βCD transient complex (Staphylococcus aureus, UniProt P09616, M139R); details: for Probability of the added nucleotide to be detected as A (Aread) / Probability of the added nucleotide to be detected as C (Cread) / Probability of the added nucleotide to be detected as G (Gread) / Probability of the added nucleotide to be detected as T (Tread): from overlap of Gaussian distributions, all 4 nucleotides present; for Current level (L3) on nucleotide binding: 5 μM nucleotide in cis chamber, 40 μM am7-βCD trans, not normalised; for Order of all point histogram current amplitudes among XMP: ribonucleotides, +110 mV, pH 8.0, 1M KCl
[2] = biological target: αHL-M113R single nanopore with unmodified β-cyclodextrin (Staphylococcus aureus, UniProt P09616, M139R); details: β-cyclodextrin 40 μM trans; dXMPs up to 300 μM trans or cis
[3] = biological target: α-hemolysin (M113R)7 pore (Staphylococcus aureus, UniProt P09616, M139R)
α-hemolysin (M113N)7 = α-hemolysin (M113N)7 (Staphylococcus aureus, UniProt P09616, M139N)

Row | Compound | Probability of the added nucleotide to be detected as A (Aread) [1] | Probability of the added nucleotide to be detected as C (Cread) [1] | Probability of the added nucleotide to be detected as G (Gread) [1] | Probability of the added nucleotide to be detected as T (Tread) [1] | also measured
1 | Nc1ncnc2c1ncn2[C@H]1C[C@H](O)[C@@H](COP(=O)(O)O)O1 | 0.74 | 0.07 | 0 | 0.19 | 
2 | Nc1nc2c(ncn2[C@H]2C[C@H](O)[C@@H](COP(=O)(O)O)O2)c(=O)[nH]1 | 0 | 0 | 0.88 | 0.12 | Current level (L3) on nucleotide binding ([1]; +130 mV): 16 pA; Relative current block among the four dXMP ([1]; +130 mV): blocks the most current
3 | β-cyclodextrin |  |  |  |  | Further current blocking events / nucleotide detection with unmodified β-cyclodextrin [2]: does not yield any detection; Cyclodextrin binding to the pore (current blocking events) ([3]; 40 μM in trans chamber): current blocking events due to cyclodextrin binding were observed
4 | Cc1cn([C@H]2C[C@H](O)[C@@H](COP(=O)(O)O)O2)c(=O)[nH]c1=O | 0.11 | 0 | 0.06 | 0.83 | Types of binding events at pH 7.5 ([1]; pH 7.5, Tris-HCl 1M KCl): two types of events with different amplitudes
5 | heptakis-6-amino-β-cyclodextrin |  |  |  |  | Current level (L2) of reversible blocking events on adaptor binding ([3]; 40 μM in trans chamber, +130 mV, 1M KCl, pH 8.0): 65±5 pA; Share of conductance in current level L2′ when the adapter is bound ([3]; pH 8.0, 40 μM trans, +130 mV): less than 15%; Binding of adaptor to (M113N)7 (α-hemolysin (M113N)7): bind
6 | Nc1ccn([C@@H]2O[C@H](COP(=O)(O)O)[C@@H](O)[C@H]2O)c(=O)n1 |  |  |  |  | Order of all point histogram current amplitudes among XMP [1]: highest current amplitude (smallest blocking)
7 | Nc1nc2c(ncn2[C@@H]2O[C@H](COP(=O)(O)O)[C@@H](O)[C@H]2O)c(=O)[nH]1 |  |  |  |  | Order of all point histogram current amplitudes among XMP [1]: lowest current (largest blocking)
8 | Nc1ccn([C@H]2C[C@H](O)[C@@H](COP(=O)(O)O)O2)c(=O)n1 | 0.06 | 0.94 | 0 | 0 | Current level (L3) on nucleotide binding ([1]; +130 mV): 22±1 pA
